Results of unrelated studies side by side (data: NIAID ChemDB).

Shared fields: growth or infection tests; species: Candida albicans; read-out: MIC

Rows are shuffled and stem from different studies. An empty or dashed field is not shown.

| SMILES | strain or isolate | method | result |
|---|---|---|---|
| O=c1[nH]sc2c(C(F)(F)F)cccc12 | ATCC 2091 |  | 20 µg/mL |
| CCC(=O)CCCNC(=S)Nc1ccc(OC)cc1 | ATCC2094 |  | >128 µg/mL |
| CC[C@@H]([C@H](C)O)n1ncn(-c2ccc(N3CCN(c4ccc(OC[C@@H]5CO[C@@](Cn6cncn6)(c6ccc(F)cc6F)C5)cc4)CC3)cc2)c1=O | Clinical isolates | broth dilution | 0.03 µg/mL |
| Cc1ccc(N2NOC(=O)C2S(=O)(=O)Nc2nc3ccc(F)cc3s2)cc1 | MTCC 227 | broth dilution | 250 µg/mL |
| CC1=C(N2CCO[C@H](CN)C2)C(F)=CN2C(=O)C(C(=O)O)=CC(C3CC3)C12 | CCH442 |  | >100 µg/mL |
| COc1ccc(NC(=S)NCCC(=O)OC(C)C)cc1OC | ATCC2094 |  | 112 µg/mL |
| Cc1ccc(N2NOC(=O)C2S(=O)(=O)Nc2nc3ccc(C)cc3s2)cc1 | MTCC 227 | broth dilution | 250 µg/mL |
| CC(C)(C)CC(C)(C)c1ccc(OCCOCC[N+](C)(C)Cc2ccccc2)cc1 |  | broth dilution | 4 µg/mL |
| C[C@@H]1[C@H](O)[C@@H](C)/C=C/C=C/C=C/C=C/C=C/C=C/C=C/[C@H](O[C@@H]2O[C@H](C)[C@@H](O)[C@H](N)[C@@H]2O)C[C@@H]2O[C@](O)(C[C@@H](O)C[C@@H](O)[C@H](O)CC[C@@H](O)C[C@@H](O)CC(=O)O[C@H]1C)C[C@H](O)[C@H]2C(=O)O | AY93025 |  | 1.5 µg/mL |
| CCCCn1sc2cc(F)ccc2c1=O | ATCC 2091 |  | 15 µg/mL |
| [CH3][Sn]([CH3])([CH3])[S]C[C@@H]1CCCN2CCCC[C@H]12 | ATCC 10231 |  | >250 µg/mL |
| O=C1N2C3C(=COC=CC3O)CC23SSC12CC1=COC=CC(O)C1N2C3=O | E83 |  | 2.5 µg/mL |
| CCCCc1oc2ccccc2c1C(=O)c1cc(I)c(OCCN(CC)CC)c(I)c1 |  | broth dilution | >128 µg/mL |
| CCCCc1nc([N+]#N)c(C(=O)N2CCCC2)[nH]1 | ATCC 10231 |  | 200 µg/mL |
| Nc1[nH]c(=O)ncc1F | ATCC 90029 |  | >64 µg/mL |
| CCOC(=O)CCNC(=S)Nc1ccccc1 | ATCC2094 |  | 58 µg/mL |
| CCCCNC(=O)c1c(SSc2cccc(C(F)(F)F)c2C(=O)NCCCC)cccc1C(F)(F)F | ATCC 2091 |  | 30 µg/mL |
| Cc1ccc(N2NOC(=O)C2S(=O)(=O)Nc2nc(-c3c(Cl)cccc3Cl)cs2)cc1 | MTCC 227 | broth dilution | 1000 µg/mL |
| NC(=O)c1ccc(C(F)(F)F)cc1SSc1cc(C(F)(F)F)ccc1C(N)=O | ATCC 2091 |  | 7.5 µg/mL |
| CC1=C(N2CCC(C(=O)O)C2)C(F)=CN2C(=O)C(C(=O)O)=CC(C3CC3)C12 | CCH442 |  | >100 µg/mL |
| O=C(/C=C/c1ccccc1)c1cccc(N(CCO)CCO)c1 | ATCC 10231 | broth dilution | 32 µg/mL |
| N#[N+]c1nc(-c2ccc(Cl)cc2)[nH]c1C(=O)N1CCCC1 | ATCC 10231 |  | 25 µg/mL |
| O=c1[nH]sc2cc(C(F)(F)F)ccc12 | ATCC 2091 |  | 7.5 µg/mL |
| C[C@@H]1[C@H](O)[C@@H](C)/C=C/C=C/CC/C=C/C=C/C=C/C=C/C(O[C@H]2O[C@H](C)[C@@H](O)[C@H](N)[C@@H]2O)CC2O[C@](O)(CC(O)C(O)CCC(O)CC(O)CC(O)CC(=O)O[C@H]1C)CC(O)C2C(=O)O | MTCC 227 | broth dilution | 100 µg/mL |
| CSc1ccc(C(F)(F)F)cc1-c1cc2nc(N)nc(N)c2cc1C | ATCC 36082 | broth dilution | 32 µg/mL |
| C[C@@H]1[C@H](O)[C@@H](C)/C=C/C=C/CC/C=C/C=C/C=C/C=C/C(O[C@H]2O[C@H](C)[C@@H](O)[C@H](N)[C@@H]2O)CC2O[C@](O)(CC(O)C(O)CCC(O)CC(O)CC(O)CC(=O)O[C@H]1C)CC(O)C2C(=O)O | ATCC 10231 | visual reading | 20 µg/mL |
| Cc1c(N2CCC(c3ccccn3)C2)c(F)cn2c(=O)c(C(=O)O)cc(C3CC3)c12 | CCH442 |  | 0.2 µg/mL |
| c1cc[c]([Sn]([S]C[C@@H]2CCCN3CCCC[C@H]23)([c]2ccccc2)[c]2ccccc2)cc1 | ATCC 10231 |  | 1.95 µg/mL |
| CC1=C(N2CC[C@H](CNCCF)C2)C(F)=CN2C(=O)C(C(=O)O)=CC(C3CC3)C12 | CCH442 |  | >100 µg/mL |
| CC(C)C(=O)CCCNC(=S)Nc1ccc([N+](=O)[O-])cc1 | ATCC2094 |  | 10 µg/mL |
| C[CH2][Ge]([CH2]C)([CH2]C)[S]C[C@@H]1CCCN2CCCC[C@H]12 | ATCC 10231 |  | 250 µg/mL |
| CC1=CC2C(N)=NC(N)=NC2C=C1c1ccc2c(N)nc(N)nc2c1 | ATCC 36082 | broth dilution | >64 µg/mL |
| C[C@@H]1[C@H](O)[C@@H](C)/C=C/C=C/CC/C=C/C=C/C=C/C=C/C(O[C@H]2O[C@H](C)[C@@H](O)[C@H](N)[C@@H]2O)CC2O[C@](O)(CC(O)C(O)CCC(O)CC(O)CC(O)CC(=O)O[C@H]1C)CC(O)C2C(=O)O | Clinical isolates | broth dilution | 2 µg/mL |
| C=CCc1ccc(O)c(-c2ccc(O)c(CC=C)c2)c1 | YL 338 | broth dilution | 64 µg/mL |
| N#[N+]c1nc(-c2ccc(F)cc2F)[nH]c1C(=O)N1CCCC1 | ATCC 10231 |  | 200 µg/mL |
| CC(C)=CCC/C(C)=C/CC/C(C)=C/CC[C@@]1(C)[C@H](CCCO)/C(=C(/C)C=O)CC[C@]1(C)O | SR76 |  | >50 µg/mL |
| O=C(O)c1cn(C2CC2)c2cc(N3CCNCC3)c(F)cc2c1=O | ATCC 10231 | broth dilution | 2 µg/mL |
| COc1ccc(-c2csc(NS(=O)(=O)C3C(=O)ONN3c3ccc(C)cc3)n2)cc1 | MTCC 227 | broth dilution | 500 µg/mL |
| Clc1ccc(COC(Cn2ccnc2)c2ccc(Cl)cc2Cl)c(Cl)c1 | ATCC 10231 |  | 15.6 µg/mL |
| CC1=C(N2CCCC(C3CCCCN3)C2)C(F)=CN2C(=O)C(C(=O)O)=CC(C3CC3)C12 | CCH442 |  | <100 µg/mL |
| Cc1ccc(N2NOC(=O)C2S(=O)(=O)Nc2ccc(-n3c(-c4c(Cl)cccc4[N+](=O)[O-])nc4ccccc4c3=O)cc2)cc1 | MTCC 227 | broth dilution | 1000 µg/mL |
| NC(=O)c1cccc(F)c1SSc1c(F)cccc1C(N)=O | ATCC 2091 |  | 30 µg/mL |
| Cc1ccc(N2NOC(=O)C2S(=O)(=O)Nc2nc(-c3ccc(Cl)cc3)cs2)cc1 | MTCC 227 | broth dilution | 125 µg/mL |
| CC(C)C(=O)CCCNC(=S)NC1COOc2ccccc21 | ATCC2094 |  | 36 µg/mL |
| Clc1ccc(COC(Cn2ccnc2)c2ccc(Cl)cc2Cl)c(Cl)c1 | Clinical isolates | broth dilution | 0.03 µg/mL |
| CCCCn1sc2cccc(F)c2c1=O | ATCC 2091 |  | 10 µg/mL |
| CC(C)OC(=O)CCNC(=S)Nc1ccccc1 | ATCC2094 |  | 19 µg/mL |
| C[C@H]1COc2c(N3CCC(O)C3)c(F)cn3c(=O)c(C(=O)O)cc1c23 | CCH442 |  | >100 µg/mL |
| COC(=O)CCNC(=S)Nc1ccc(OC)cc1 | ATCC2094 |  | 6 µg/mL |
| Cc1c(N2C[C@@H]3CCCN[C@@H]3C2)c(F)cn2c(=O)c(C(=O)O)cc(C3CC3)c12 | CCH442 |  | >100 µg/mL |
| O=c1[nH]c2ccccc2n1C1CCN(CCCC(c2ccc(F)cc2)c2ccc(F)cc2)CC1 |  | broth dilution | >128 µg/mL |
| N#[N+]c1nc(-c2cccc(Cl)c2)[nH]c1C(=O)N1CCCC1 | ATCC 10231 |  | 200 µg/mL |
| CCCCCCCCNC(C)C(O)c1ccc(SC(C)C)cc1 |  | broth dilution | 16 µg/mL |
| CCOC(=O)CCNC(=S)Nc1ccc(OC)c(OC)c1 | ATCC2094 |  | 101 µg/mL |
| Cc1c(N2CCC(N)CC2)c(F)cn2c(=O)c(C(=O)O)cc(C3CC3)c12 | CCH442 |  | >100 µg/mL |
| NC(=O)c1c(F)cccc1SSc1cccc(F)c1C(N)=O | ATCC 2091 |  | 5 µg/mL |
| C1CCC(C(CC2CCCCN2)C2CCCCC2)CC1 |  | broth dilution | 32 µg/mL |
| Cc1c(N2CCC[C@H]2CN)c(F)cn2c(=O)c(C(=O)O)cc(C3CC3)c12 | CCH442 |  | >100 µg/mL |
| O=C(/C=C/c1ccc(Br)cc1)c1cccc(N(CCO)CCO)c1 | ATCC 10231 | broth dilution | 128 µg/mL |
| CC/C(=C(\c1ccccc1)c1ccc(OCCN(C)C)cc1)c1ccccc1 |  | broth dilution | 32 µg/mL |